Human monoclonal antibodies against the spike receptor-binding domain (heavy:light variable regions). IC50 against pseudoviruses bearing the spike of naturally observed variants; lower = stronger; >10 µg/ml means not reached at the top dose. No active / inactive call. The stated detection limit is 0.0005 µg/ml; values near or below 0.001 µg/ml lie at the floor of the assay.
Tests used:
Assay in all cases: pseudovirus neutralization IC50; higher = weaker neutralization
[1] = target: SARS-CoV-2 Omicron BA.1 spike pseudovirus
Protocol: (§1)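 Single-round VSV luciferase pseudovirus mixed with antibody dilutions for 1 h and put on Huh-7 cells for about a day; IC50 from the dose curve.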

[2] = target: SARS-CoV-2 Omicron BA.2 spike pseudovirus
Protocol: as §1

[3] = target: SARS-CoV-2 Omicron BA.2.75 spike pseudovirus
Protocol: as §1

[4] = target: SARS-CoV-2 Omicron BA.5 spike pseudovirus
Protocol: as §1

[5] = target: SARS-CoV-2 Omicron BQ.1.1 spike pseudovirus
Protocol: as §1

[6] = target: SARS-CoV-2 Omicron XBB spike pseudovirus
Protocol: as §1

[7] = target: SARS-CoV-2 early D614G spike pseudovirus
Protocol: as §1

Binder | pseudovirus neutralization IC50 [1] | pseudovirus neutralization IC50 [2] | pseudovirus neutralization IC50 [3] | pseudovirus neutralization IC50 [4] | pseudovirus neutralization IC50 [5] | pseudovirus neutralization IC50 [6] | pseudovirus neutralization IC50 [7]
BD57-0292 (protein) chain 1: QVQLQESGPGLVKPSETVSLTCTVSGGSISNYYWTWIRQPPGKGLEWIGHLYYSGYINYSPSLKSRVTMSVDTSKNQFSLKLSSVTAADTAVYYCAGLAVTMVRGVISPRYYDYMDVWGKGTTVTVSS chain 2: DIVMTQSPDSLLVSLGERATITCKSSQNILYSSNNKNYLAWYQQKPGQPPKLLIYWASTRESGVPDRFSGSGSGTDFTLTISSLQAEDVAVYYCQQYYSSPYTFGPGTKVGIK | > 10 µg/mL | > 10 µg/mL | > 10 µg/mL | > 10 µg/mL | > 10 µg/mL | > 10 µg/mL | > 10 µg/mL
BD57-0294 (protein) chain 1: QITLKESGPTLVKPTQTLTLTCTFSGFSLSTSGVGVAWIRQPPGKALEWLALIYWDDKKHYSPSLQSRLTITKDTSKNQVVLMMTNMDPLDTGTYYCAHIYDFWSGYSGGWGQGSLVTVSS chain 2: DIQMTQSPSSLSASVGDRVTITCRASQTISSYLNWYQQKPGKAPKLLIYAAFNFQSGVPARFSGSGSGTDFTLTISSLQPEDFATYYCQQSYSFPWTFGQGTKVEIK | > 10 µg/mL | > 10 µg/mL | > 10 µg/mL | > 10 µg/mL | > 10 µg/mL | > 10 µg/mL | 3.38 µg/mL
BD57-0299 (protein) chain 1: QVQLVESGGGVVQPGRSLRLSCAASGFTFTNFDMHWVRQAPGKGLQWVAVISSGGNNKYYEDSVKGRFTLSRDNAKNTLYLQMNSLRVEDTAIYYCAKEVGISDNAFKPDGFDIWGQGTLVTVSS chain 2: SYVLTQAPSVSVAPGKTARITCGGESIGSKSVHWYQQKPGQAPVLLITYDSDRPSGIPERFSGSNSGNTATLTISGVEAGDEADYYCQVWDIGVVFGGGTKLTVL | 3.59 µg/mL | 4.11 µg/mL | 5.27 µg/mL | 3.07 µg/mL | > 10 µg/mL | 2.47 µg/mL | > 10 µg/mL
BD57-0307 (protein) chain 1: QVQLVQSGAEVRKPGASVKVSCKASGYTFTKYFLHWVRQAPGQGLEWMGIINPSAGSPDYAQKFQGRVTMTRDTSTNTVYMELSSLRSDDTAVYYCARSHHIVVAALGDYWGQGTLVTVSS chain 2: QTVVTQEPSLTVSPGGTVTLTCASSTGAVTSDYFPNWFQQKPGQAPTALIYSTGNKYSWTPARFSGSLLGGKAALALSGVQPEDEADYYCLLYYGGAWVFGGGTSLTVL | 0.36 µg/mL | 0.552 µg/mL | 0.0528 µg/mL | 2.21 µg/mL | > 10 µg/mL | > 10 µg/mL | 0.00358 µg/mL
BD57-0311 (protein) chain 1: QVQLVESGGGVVQPGRSLRLSCVGSGFTFNTYAMHWVRQSPGKGLEWVAVVSSDGSDKYYADSVRGRLTISRDNSKNTLYLQMNNLSAEDAAVYYCARDLYIAVAGKLHYYNGVDVWGQGTTVTVSS chain 2: DIQMTQSPSSVSASVGDRVTITCRASQDIANWLAWYQQKPGKAPKLLIYSASTLQSGVPSRFSGSGFGTDFTLSISSLQPEDFGTYYCQQAKSFPQTFGQGTVLEIK | 5.01 µg/mL | 0.0141 µg/mL | 5.3 µg/mL | 0.00804 µg/mL | > 10 µg/mL | > 10 µg/mL | 0.00292 µg/mL
BD57-0312 (protein) chain 1: EVQLVESGGGLVQPGGSLRLSCAASGFKFDDYAMHWVRQAPGKGLEWVSGISWDSGGLGYADSVKGRFTISRDNAKNSLYLQMNSLRSEDTAFYYCAKETSTSCYTACGSLDNWGQGALVTVSS chain 2: QSALTQPASVSGSPGQSITISCTGTSRDVGNYNLVSWYQQHPGKAPKLMIYEVSKRPSGVSSRFSGSKSGNTASLTISGLQAEDEADYFCWSYAGFSTLLIGGGTRVTVL | 4.46 µg/mL | 6.9 µg/mL | 7.47 µg/mL | 9.31 µg/mL | 8.36 µg/mL | 5.74 µg/mL | 3.58 µg/mL

Reference: the supplement of paper PMC9931576
